Source: PubChem BioAssay AID1259414 (Drosophila RNAi Screening Center, 2018)
The screen tested about 24,000 reagents; below is a random part of those that have a named target and a result. Of all reagents, about 1,210 (5%) are marked active. 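Inactive calls also include excluded dsRNAs with several or no targets, genes unexpressed in JW18, and well A1, regardless of score.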 A number with no mark means an inactive call. A plus sign joins genes that one reagent is predicted to hit.

- Purpose: 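Host factors increasing or decreasing Wolbachia levels in cultured fly cells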 (primary screen)
- Cell system: Drosophila JW18 cells infected with Wolbachia
- Reagents: long dsRNA against Drosophila genes, 0.25 µg dsRNA per well of a 384-well plate
- Timing: 5 days
- Challenge: cells persistently infected with Wolbachia before knock-down; no added drug
- Read-out: 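Imaged fluorescence in situ signal for Wolbachia 23S rRNA per DAPI-counted host cell, given as a robust z-score within each plate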
- Direction: Wolbachia per cell robust z: higher = more Wolbachia per host cell than the plate typical
- Rule for the call: 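Hit when robust z is 1.5 or more, or -1.5 or less, in at least two of three replicates; excludes dsRNAs with several or no targets, genes not expressed in JW18 and well A1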

| target | DRSC id | Wolbachia per cell robust z, rep 1 | Wolbachia per cell robust z, rep 2 | Wolbachia per cell robust z, rep 3 |
| --- | --- | --- | --- | --- |
| CG18661 (GeneID 50438) | DRSC02690 | -3.35 | 0.73 | -1.34 |
| Mybbp1A (GeneID 31010) | DRSC18788 | -0.744 (active) | -2.88 | -2.08 |
| CG6295 (GeneID 43247) | DRSC16012 | -4.4 | 0.51 | 1.21 |
| CG6295 (GeneID 43247) | DRSC24229 | -1.54 | 0.105 | -0.282 |
| dgt5 (GeneID 36364) | DRSC07280 | -0.586 | 1.07 | -0.338 |
| dgt5 (GeneID 36364) | DRSC29379 | 0.769 | 1.32 | 0.614 |
| CG11474 (GeneID 37514) | DRSC04112 | -3.85 | 0.318 | -0.0575 |
| Diedel3 (GeneID 50358) | DRSC19544 | -0.202 | -1.75 | -3.33 |
| rasp (GeneID 44098) | DRSC08191 | -0.389 | 0.712 | -0.186 |
| CG11109 (GeneID 40507) | DRSC11633 | -1.95 | 1.05 | -0.504 |
| bmm (GeneID 39611) | DRSC10502 | -0.391 | -0.109 | -0.1 |
| Fatp2 + CG44253 | DRSC04178 | 0.492 | -0.205 | 0.274 |
| Lerp (GeneID 43223) | DRSC14750 | 0.613 | 0.116 | -1.99 |
| Lerp (GeneID 43223) | DRSC14751 | -1.93 | 0.839 | 0.517 |
| Lerp (GeneID 43223) | DRSC16030 | 0.685 | 1.33 | 0.371 |
| Lerp (GeneID 43223) | DRSC16031 | 0.607 | 0.395 | 1.16 |
| CG7271 + term | DRSC30034 | -2.92 | -0.891 | 0.338 |
| CG9109 (GeneID 33844) | DRSC03139 | -0.822 | -9.88 | -0.689 |
| CG9109 (GeneID 33844) | DRSC26398 | 1.95 | -0.361 | -1.07 |
| FucTB (GeneID 34260) | DRSC02745 | -1.02 | -0.977 | -1.61 |
| CG12708 (GeneID 32502) | DRSC19490 | 0.321 | -1.36 | -1.34 |
| Drip (GeneID 36236) | DRSC07405 | -2.13 | 0.154 | -0.674 |
| yip7 (GeneID 38680) | DRSC11410 | -0.432 | -3.79 | 0.688 |
| yip7 (GeneID 38680) | DRSC25234 | 0.715 | 0.36 | -0.87 |
| Gmd (GeneID 33716) | DRSC03119 | 0.784 | -0.883 | -1.51 |
| Gmd (GeneID 33716) | DRSC27937 | -0.048 | -0.516 | 0.286 |
| Hsp60A (GeneID 32045) | DRSC20254 | -0.662 | 0.298 | 0.461 |
| CG15601 (GeneID 32509) | DRSC19670 | -0.284 | -2.01 | 0.614 |
| CG13002 (GeneID 32681) | DRSC19521 | -0.372 | -0.673 | 0.518 |
| CG13002 (GeneID 32681) | DRSC29478 | 0.0349 | 0.16 | -0.253 |
| Osi13 (GeneID 40769) | DRSC12281 | -0.176 | 0.48 | 0.786 |
| CG2906 (GeneID 35753) | DRSC06841 | -1.09 | -1.16 | -1.9 |
| CG42729 (GeneID 3885667) | DRSC10236 | -0.183 | -0.225 | 0.325 |
| Vdup1 (GeneID 38023) | DRSC08586 | 0.17 | -1 | -0.681 |
| Or43a (GeneID 35644) | DRSC07485 | 0.432 | 0.287 | 0.179 |
| CG11404 (GeneID 40474) | DRSC11656 | 0.0572 | 0.0452 | 0.487 |
| CG11404 (GeneID 40474) | DRSC27005 | 0.123 | -0.769 | -1.21 |
| Jhbp13 (GeneID 34729) | DRSC02913 | 1.22 | 0.346 | -4.82 |
| RluA-1 (GeneID 34438) | DRSC02240 | -0.146 | -0.284 | -5.04 |
| RluA-1 (GeneID 34438) | DRSC03060 | 0.969 | 0.736 | 0.566 |

Single entries from the entries so far:
Gmd (GeneID 33716) [DRSC27937], Wolbachia per cell robust z, rep 3 → 0.286
Entry of Lerp (GeneID 43223) [DRSC16030] under “Wolbachia per cell robust z, rep 2”: 1.33
CG11404 (GeneID 40474) [DRSC27005], Wolbachia per cell robust z, rep 2: -0.769
For “Wolbachia per cell robust z, rep 3”, rasp (GeneID 44098) [DRSC08191] has -0.186
Result for CG9109 (GeneID 33844) [DRSC03139] under “Wolbachia per cell robust z, rep 1”: -0.822
Osi13 (GeneID 40769) [DRSC12281], Wolbachia per cell robust z, rep 1 = -0.176

Continued:
| target | DRSC id | Wolbachia per cell robust z, rep 1 | Wolbachia per cell robust z, rep 2 | Wolbachia per cell robust z, rep 3 |
| --- | --- | --- | --- | --- |
| CG18605 (GeneID 37189) | DRSC06772 | -1.07 | 0.23 | 1.31 |
| CG18605 (GeneID 37189) | DRSC26583 | -0.133 | -0.0951 | -0.335 |
| GstD3 (GeneID 48336) | DRSC15571 | -0.177 | 0.323 | 0.475 |
| GstD3 (GeneID 48336) | DRSC24755 | 0.445 | 0.691 | -0.823 |
| CG5089 (GeneID 36859) | DRSC06914 | 0.833 | 0.616 | -0.456 |
| CG5089 (GeneID 36859) | DRSC30089 | -0.0678 | -0.295 | -0.2 |
| CG3700 + MED23 | DRSC24669 | -0.544 | -2.44 | -0.354 |
| CG3700 + MED23 | DRSC25453 | 0.797 | 0.781 | -0.136 |
| Wdr82 (GeneID 34153) | DRSC02595 | -0.213 | 0.339 | -0.701 |
| Wdr82 (GeneID 34153) | DRSC21723 | -2.6 (active) | -0.899 | -1.54 |
| CG8664 (GeneID 32719) | DRSC20116 | 0.36 | -0.685 | -0.42 |
| ATPCL (GeneID 36760) | DRSC05913 | -0.373 | 0.958 | 0.868 |
| ATPCL (GeneID 36760) | DRSC27809 | -1.64 | 0.00684 | -0.208 |
| CG33339 (GeneID 2768681) | DRSC22917 | 1.39 | -3.13 | 1.36 |
| CG33339 (GeneID 2768681) | DRSC29651 | -0.312 | -0.134 | 0.845 |
| Chro (GeneID 40508) | DRSC11630 | -0.00487 | 0.965 | 0.591 |
| CG15695 (GeneID 42468) | DRSC15117 | 0.481 | 0.555 | 0.712 |
| CG15695 (GeneID 42468) | DRSC29582 | 0.106 | -1.19 | 0.38 |
| Impbeta11 + asRNA:CR43429 | DRSC07525 | 0.266 | -0.0849 | -1.61 |
| CG17752 (GeneID 42337) | DRSC15262 | 0.335 (active) | -3.74 | -5.85 |
| CG17752 (GeneID 42337) | DRSC26265 | -0.257 | 0.779 | 1.28 |
| CG33644 (GeneID 3772563) | DRSC37862 | -0.654 | 0.443 | 0.385 |
| trx (GeneID 41737) | DRSC17089 | 4.53 (active) | -2.02 | -4.58 |
| trx (GeneID 41737) | DRSC38481 | 0.109 | -0.0564 | -1.84 |
| mor (GeneID 41942) | DRSC15378 | 1.85 (active) | 1.66 | 1.06 |
| mor (GeneID 41942) | DRSC27980 | -0.7 | -1.04 | -1.44 |
| ftz-f1 (GeneID 40045) | DRSC25015 | -0.0506 | -2.05 | -1.27 |
| ftz-f1 (GeneID 40045) | DRSC37552 | -2.89 | 1.11 | 1.44 |
